Reference: publication PMC7179022, “Carvacrol Prodrugs with Antimicrobial Activity Loaded on Clay Nanocomposites” (Materials, 2020)

Experiment: Adsorption equilibrium of prodrugs onto montmorillonite (VHS)
Assay type: physicochemical
Settings: 1:1 w/w prodrug:VHS, 24 h, 22 °C

Row | SMILES | amount of carvacrol prodrug retained by VHS [% w/w]
1 | Cc1ccc(C(C)C)cc1OC(=O)[C@@H](C)N [WSCP2] | 32
2 | Cc1ccc(C(C)C)cc1OC(=O)CN [WSCP1] | 24
3 | Cc1ccc(C(C)C)cc1OC(=O)CCN [WSCP3] | 22
